Measured values from several laboratories, pooled; numbers as filed in NIAID ChemDB.

Common to all: enzyme or target tests; agent: HIV-1; protein: Reverse transcriptase; read by: nucleotide incorporation; measure: IC50

Conditions beyond the fields shown may differ between rows. ICn is the concentration giving n% inhibition.

{"compound": "Cc1cccc(Cc2cc(=O)[nH]c(OC3CCCCC3)n2)c1", "strain": "IIIB", "result": "1.8 µM"}
{"compound": "Cc1cc(C)c2nc(NC(=S)NC[C@H](C)c3ccccc3)sc2c1", "result": "38.8 µM"}
{"compound": "O=C(/C=C/c1ccc(O)c2c1[C@H](C(=O)O)[C@@H](c1ccc(O)c(O)c1)O2)O[C@H](Cc1ccc(O)c(O)c1)C(=O)O", "strain": "IIIB", "result": "0.8 µM"}
{"compound": "CCCc1cccnc1N(C)C1CCN(C(=O)c2cc3cc(NS(C)(=O)=O)ccc3[nH]2)CC1", "mutations": "RT-Y181C", "strain": "IIIB", "result": ">1 µM"}
{"compound": "CCc1cc(CCc2nc3c(Cl)ccc(Cl)c3o2)c(=O)[nH]c1C", "result": "0.017 µM"}
{"compound": "O=C(O[C@@H]1CC(O)(C(=O)O)C[C@@H](OC(=O)c2cc(O)c(O)c(O)c2)C1O)c1cc(O)c(O)c(O)c1", "result": "1.31 µM"}
{"compound": "CC(C)=CCN1Cc2cccc3[nH]c(=S)n(c23)C[C@@H]1C", "result": "4.9 µM"}
{"compound": "Cc1ccc(NC(=S)NC[C@H](C)c2ccccc2)nc1", "result": "0.5 µM"}
{"compound": "O=C(/C=C/c1ccc(O)c(O)c1)O[C@@H]1CC(O)(C(=O)O)C[C@@H](OC(=O)/C=C/c2ccc(O)c(O)c2)C1O", "result": "1.16 µM"}
{"compound": "C=C(C)[C@@H]1CC=C2C(=CC[C@]3(C)[C@@H]([C@@H](CCC=C(C)C)C(=O)O)[C@H](O)C[C@@]23C)[C@@]1(C)CCC(=O)O", "result": ">45 µM"}
{"compound": "Cc1cc(C)cc(Cc2[nH]c(=O)[nH]c(=O)c2C)c1", "strain": "IIIB", "result": ">10 µM"}
{"compound": "Cc1c(Sc2ccccc2)n(COCCO)c(=O)[nH]c1=O", "result": "0.1 µM"}
{"compound": "Cc1cc(C)nc(NC(=S)N[C@@H](C)c2cccc3ccccc23)c1", "result": ">100 µM"}
{"compound": "COc1ccc(C(=O)OC[C@H](OC(=O)c2ccc(OC)cc2)[C@@H](COC(=O)c2ccc(OC)cc2)OC(=O)c2ccc(OC)cc2)cc1", "result": ">25 µM"}
{"compound": "Cc1cccc2sc(NC(=S)NC[C@H](C)c3ccccc3)nc12", "result": ">100 µM"}
{"compound": "CCN1c2ncccc2C(=O)N(C)c2ccc(-c3ncc[nH]3)nc21", "result": "3.7 µM"}
{"compound": "O=C(O)C1=C[C@@H](OC(=O)c2cc(O)c(O)c(O)c2)[C@@H](OC(=O)c2cc(O)c(O)c(O)c2)[C@H](OC(=O)c2cc(O)c(O)c(O)c2)C1", "result": "0.1 µM"}
{"compound": "Cc1cccc(CSc2nc(N)cc(Cl)n2)c1", "strain": "RT-WT", "result": "0.28 µM"}
{"compound": "Cc1c([C@H](C)c2c(F)cccc2F)nc(SC2CCCC2)[nH]c1=O", "result": "0.008 µM"}
{"compound": "Cc1c(Sc2ccccc2)n(COCCO)c(=O)[nH]c1=O", "result": "37 µM"}
{"compound": "COc1c2c(cc3c1-c1c(cc4c(c1OC)OCO4)C[C@H](C)[C@H](C)C3)OCO2", "result": "100 µM"}
{"compound": "CC(C)=CCN1Cc2cccc3[nH]c(=S)n(c23)C[C@@H]1C", "strain": "IIIB", "result": "0.525 µM"}
{"compound": "Cc1cc(C)cc(Cc2cc(=O)[nH]c(OCC(C)C)n2)c1", "strain": "IIIB", "result": "1 µM"}
{"compound": "CC1(C)CC[C@]2(C)[C@@H](O)C[C@]3(C)C(=CCC4[C@@]5(C)CC[C@H](O)C(C)(C)[C@@H]5CC[C@]43C)[C@@H]2C1", "result": "23 µM"}
{"compound": "Cc1cccc(Cc2nc(OCC(C)C)[nH]c(=O)c2C)c1", "strain": "IIIB", "result": "5.5 µM"}
{"compound": "O=c1c(O[C@@H]2O[C@H](CO)[C@@H](O)[C@H](O)[C@H]2O)c(-c2ccc(O)c(O)c2)oc2cc(O)cc(O)c12", "strain": "IIIB", "result": "50 µM"}
{"compound": "O=C(O)C1=C[C@@H](O)[C@@H](OC(=O)c2cc(O)c(O)c(O)c2)[C@H](OC(=O)c2cc(O)c(O)c(O)c2)C1", "result": "1.77 µM"}
{"compound": "Cc1ccc(NC(=S)N[C@@H](C)c2cccc3ccccc23)nc1", "result": ">100 µM"}
{"compound": "CN(C)C(=O)/C=C/CSc1nc(N)cc(Cl)n1", "mutations": "RT-P236L", "result": "0.07 µM"}
{"compound": "C[C@H]1[C@H](C)CC[C@]2(C)CC[C@]3(C)C(=CCC4[C@@]5(C)CCC(=O)C(C)(C)[C@@H]5CC[C@]43C)[C@H]12", "result": "3.3 µM"}
{"compound": "CCc1cc(CCc2nc3ccccc3o2)c(=O)[nH]c1C", "mutations": "RT-K103N Y181C", "result": "118 µM"}
{"compound": "Cc1cccc(Cc2nc(OC3CCCCC3)[nH]c(=O)c2C)c1", "strain": "IIIB", "result": "1.7 µM"}
{"compound": "O=C(OC[C@H]1O[C@@H](OC(=O)c2cc(O)c(O)c(O)c2)[C@H](O)[C@@H](OC(=O)c2cc(O)c(O)c(O)c2)[C@@H]1OC(=O)c1cc(O)c(O)c(O)c1)c1cc(O)c(O)c(O)c1", "strain": "IIIB", "result": "80 µM"}
{"compound": "COc1cc2c(c(OC)c1OC)-c1c(cc3c(c1OC)OCO3)C[C@H](C)[C@H](C)C2", "mutations": "Y181C", "result": "55 µM"}
{"compound": "O=C(OC[C@H](OC(=O)c1ccc(O)cc1)[C@@H](COC(=O)c1ccc(O)cc1)OC(=O)c1ccc(O)cc1)c1ccc(O)cc1", "result": "~12 µM"}
{"compound": "Cc1cccc(Cc2cc(=O)[nH]c(OC3CCCC3)n2)c1", "strain": "IIIB", "result": "3.1 µM"}
{"compound": "C[C@H]1[C@H](C)CC[C@]2(C)CC[C@]3(C)C(=CC[C@@H]4[C@@]5(C)CC[C@H](O)C(C)(C)[C@@H]5CC[C@]43C)[C@H]12", "result": "3.3 µM"}
{"compound": "COc1nc(Cc2cc(C)cc(C)c2)cc(=O)[nH]1", "strain": "IIIB", "result": ">10 µM"}
{"compound": "COC(=O)C1(O)CC(OC(=O)/C=C/c2ccc(O)c(O)c2)C(O)C(OC(=O)/C=C/c2ccc(O)c(O)c2)C1", "result": "1.7 µM"}
{"compound": "Cc1cccc(NC(=S)NC[C@H](C)c2ccccc2)n1", "result": "16.7 µM"}
{"compound": "CCN1c2ncccc2C(=O)N(C)c2ccc(-c3cccc(O)c3)nc21", "mutations": "RT-Y181C", "result": "0.56 µM"}
{"compound": "Nc1cc(Cl)nc(SC/C=C/c2ccccc2)n1", "strain": "RT-WT", "result": "0.19 µM"}
{"compound": "CC(C)=CCC[C@@H](C)C1CC[C@@]2(C)[C@@H]3CC=C4[C@@H](CC[C@H](O)C4(C)C)[C@]3(C)CC[C@]12C", "result": "28 µM"}
{"compound": "C[C@@H](NC(=S)Nc1ccc(Cl)cn1)c1cccc2ccccc12", "result": "0.58 µM"}
{"compound": "O=C(O)c1cc(O)c(O)c(O)c1", "strain": "IIIB", "result": ">1000 µM"}
{"compound": "C=C(CCC=C(C)C)C1CC[C@]2(C)C1CC[C@@H]1[C@@]3(C)CC[C@H](O)C(C)(C)[C@@H]3CC[C@]12C", "result": "3.5 µM"}
{"compound": "Cc1cccc(NC(=S)N[C@H](C)c2cccc3ccccc23)n1", "result": "1.03 µM"}